This assay concerns profilin II-GFP transfected hippocampal neurons.

As for botulinum toxin A, the “Numbers of cells − (no targeting)” value is listed as 6.

The values above are taken from patent US20050048462A1, “Markers and screens” (priority 2001, published 2005).
